Experimental data from the supplement of paper PMC9931576.
Human monoclonal antibodies against the spike receptor-binding domain (heavy:light variable regions). IC50 against pseudoviruses bearing the spike of naturally observed variants; lower = stronger; >10 µg/ml means not reached at the top dose. No active / inactive call. The stated detection limit is 0.0005 µg/ml; values near or below 0.001 µg/ml lie at the floor of the assay.

Columns and labels:
Test in all cases: pseudovirus neutralization IC50; higher = weaker neutralization
[1] = target: SARS-CoV-2 Omicron BA.1 spike pseudovirus
Method: (§1)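 Single-round VSV luciferase pseudovirus mixed with antibody dilutions for 1 h and put on Huh-7 cells for about a day; IC50 from the dose curve.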

[2] = target: SARS-CoV-2 Omicron BA.2 spike pseudovirus
Method: as §1

[3] = target: SARS-CoV-2 Omicron BA.2.75 spike pseudovirus
Method: as §1

[4] = target: SARS-CoV-2 Omicron BA.5 spike pseudovirus
Method: as §1

[5] = target: SARS-CoV-2 Omicron BQ.1.1 spike pseudovirus
Method: as §1

[6] = target: SARS-CoV-2 Omicron XBB spike pseudovirus
Method: as §1

[7] = target: SARS-CoV-2 early D614G spike pseudovirus
Method: as §1

Binder	pseudovirus neutralization IC50 [1]	pseudovirus neutralization IC50 [2]	pseudovirus neutralization IC50 [3]	pseudovirus neutralization IC50 [4]	pseudovirus neutralization IC50 [5]	pseudovirus neutralization IC50 [6]	pseudovirus neutralization IC50 [7]
7D6 (protein) chain 1: EVQLQQSGAELVRPGASVKLSCTASGFNIKDTYIHWVKQRPEQGLEWIGRIDPGDGDTEYDPSFQGKATITADTSSNTAYLELSSLTSEDTAVYYCTRFYDYVNYGMDYWGQGTSVTVSS chain 2: DIQMTQSPASLSASVGETVTITCRASGNIHNYLAWYQQKQGKSPQLLVYNAKTLADGVPSRFSGSGSGTQYSLKINSLQPEDFGSYYCQHFWSTPPWTFGGGTKLEVK	> 10 µg/mL	> 10 µg/mL	> 10 µg/mL	> 10 µg/mL	> 10 µg/mL	> 10 µg/mL	> 10 µg/mL
BD55-3451 (protein) chain 1: QVQLVQSGTEVKRPGSSVKVSCKASGGTFSTYTINWVRQAPGQGLEWMGRIIPMLNIPKYAQKFQDRVTITADRSTNTAYMELRSLRYDDTAVYYCVRAEGTGWLGYAFDIWGQGTMVTVSS chain 2: QSALTQPASVSGSPGQSITISCTGTSSDLGGSVYVSWYQQHPGQAPKLIIYDVSNRPSGVSHRFSGSKSGNTASLTISGLQADDEADYYCTSYTTTTALVVFGGGTKLTVL	> 10 µg/mL	> 10 µg/mL	> 10 µg/mL	> 10 µg/mL	> 10 µg/mL	> 10 µg/mL	0.0098 µg/mL
BD55-3561 (protein) chain 1: QVQLVESGGGVVQPGRSLRLSCAVSGFTFSDYGMHWVRQAPGKGMEWVAVIWFDGTNKYYADSVKGRFTISRDNSKNTLYLEMNSLRAEDTAVYYCTKSWVYKGTPYYFDYWGQGTLVTVSA chain 2: EIVLTQSPVTLSLSPGERATLSCRASQNIRSSLAWYQHKPGQAPRLLIYDASNRATGIPDRFSGSGSGTDFTLTISSLEPEDFAVYFCQQRANWPPLTFGGGTKVEIK	> 10 µg/mL	> 10 µg/mL	> 10 µg/mL	> 10 µg/mL	> 10 µg/mL	> 10 µg/mL	> 10 µg/mL
BD55-3637 (protein) chain 1: QVQLVESGGGVVQPGRSLRLSCAASGFTFSTYGMHWVRQAPGKGLQWVAFISDGGNKKYFADSVKGRFTISRDNSKNTLYLQMSSLRTEDTAVYYCAKERYCAGGDCSNPFFDYWGQGTLVTVSS chain 2: DIQVTQSPSSLSASVGDRVTITCRASQSISSSLNWYQHKPGNAPKLLIYAASSLQSGVPSRFSGSGSGTDFILTISSLQPEDFATYYCQQSHSFPRTFGQGTKVEFR	> 10 µg/mL	> 10 µg/mL	> 10 µg/mL	> 10 µg/mL	> 10 µg/mL	> 10 µg/mL	0.92 µg/mL
BD55-3684 (protein) chain 1: EVQLVESGGGLVKPGGSLRLSCAASGFTFSSYSMTWVRQAPGKGLEWVSSISSSSDYIYYTDSMEGRFTISRDNAKNSLYLQMNSLRAEDTAVYYCATNREMATTEWGYFDNWGQGTLVTVSS chain 2: EIVMTQSPATLSVSPGERATLSCRASQSASSNLAWYQQKPGQAPRLLIYDASTRATGIPARFSGSGSGTEFTLTISSLQSEDFAVYYCQQYYIWPPEFTFGPGTKVDIK	> 10 µg/mL	> 10 µg/mL	> 10 µg/mL	> 10 µg/mL	> 10 µg/mL	> 10 µg/mL	> 10 µg/mL
BD55-3716 (protein) chain 1: QVQLVESGGGVVQPGRSLRLSCAASGFMFSSYAMDWVRQAPGKGLEWVAVISYDGRNKYYADSVKGRFTISRDNSKNTLYLQMNSLRPEDTAVYYCAREDGSLVWFGDLTLDYWGRGTLVTVSS chain 2: QSVLTQPPSASGTPGQRVTISCSGSSSNIEINAVSWYQQLPGAAPKLLIYNNDQRPSGVPDRFSGSKSGTSASLAISGLQSEDEADYYCAAWDDSLKGVFGGGTKLTVL	> 10 µg/mL	> 10 µg/mL	> 10 µg/mL	> 10 µg/mL	> 10 µg/mL	> 10 µg/mL	1.15 µg/mL
BD55-3721 (protein) chain 1: QVQQQQWGAGLLKPSETLSLTCAVYGGSFSDYYWSWVRQPPGKGLEWIGEIIQSGSTNYNPSLKSRVTISVDTSKNQFSLKLSSVTAADTAVYYCARGRLVRGITWVPLDYWGQGALVTVSS chain 2: DIQMTQSPSTLSTSVGDRVTITCRASQSVSSWLAWYQQKPGKAPKLLIYKASSLEDGVPSRFSGSGSGTEFTLTISSLQPDDFATYYCQQYNSYPRTFGHGTKVEIK	6.38 µg/mL	> 10 µg/mL	> 10 µg/mL	> 10 µg/mL	> 10 µg/mL	> 10 µg/mL	0.0314 µg/mL
BD55-4281 (protein) chain 1: QVQLVQSGAELKKPGSSVRVSCKAPGGSFSSYTISWVRQAPGQGLEWMGRVIPILDRSIYAQNFQGRVTITADKSTTTAYMEISSLRSDDTAVYYCARAEGTGWVGYAFDIWGQGTLVTVSS chain 2: QSALTQPASVSGSPGQSITISCTGPISDVVTYDYVSWYQQRPGKAPRLMIYDVSQRPSGVSDRFSGSKSGNTASLTISGLQAEDEAHYYCTSYTRTTTLVVFGGGTKVTVV	> 10 µg/mL	> 10 µg/mL	> 10 µg/mL	> 10 µg/mL	> 10 µg/mL	> 10 µg/mL	0.016 µg/mL
BD55-4285 (protein) chain 1: QVQLVQSGSELKKPGASVKVSCKASENIFTTFAIHWVRQAPGQGLEWMGWINTNTGNPTYAQGFTGRFVFSLDTSVNTAYLQISSLKTEDTAFYYCANSYDIYTYSLDSWGQGTLITVSS chain 2: EKVLTQSPATLSVSPGERATLSCRASQSVGSDLAWYQQKPGQAPRLLIYGASTRATGIPARFSGSGSGTEFTLTITSLQSEDFAVYYCQQYNNWPLTFGGGTKVEIK	> 10 µg/mL	> 10 µg/mL	> 10 µg/mL	> 10 µg/mL	> 10 µg/mL	> 10 µg/mL	0.256 µg/mL
BD55-4286 (protein) chain 1: EVQLVESGGGLVQPGGSLRLSCAASGFTFSRYPMHWVRQAPGMGLEYVSSITSNGVGRFYADSVKGRFTISRDNSKNTLYLQVGSLGAEDMAVYYCAREGRDTHGLYLDFWGQGTLVTVSS chain 2: DIQMTQSPSSLSASVGDRVTITCRASQSINNYLNWYQQKPGKAPKLLIFATSTLHSGVPSRFSGSGSGTDFSLTITSLQPEDFATYYCQQSYITPTYTFGQGTKLEIK	> 10 µg/mL	> 10 µg/mL	> 10 µg/mL	> 10 µg/mL	> 10 µg/mL	> 10 µg/mL	> 10 µg/mL
BD55-4325 (protein) chain 1: QAQLVQSGAEVKKPGASVKVSCEAIGYAFKTYGISWVRQAPGQGLEWVGWISGHDGTTNYAQKFQGRVTLTTDTSTNTAFLEVKSLRSDDTAVFYCARDKAYSGYDYWSTIFDYWGQGTLVTVST chain 2: SYVLTQPPSVSVAPGKTATITCGGNNIRSKSVQWFQQRPGQAPILVLYYDTDRPSGIPERFSGSNSGNTATLTISRVEAGDEADYYCQVWDSTTDHYLFGTGTKVTVL	> 10 µg/mL	> 10 µg/mL	> 10 µg/mL	> 10 µg/mL	> 10 µg/mL	> 10 µg/mL	0.198 µg/mL
BD55-1004 (protein) chain 1: EVQLVESGGRLVQRGGSLRLSCAASGFRFNSYSMNWVRQAPGKGLEWVSYITSTSGTTYYADSVKGRFTISRDNAKNSLFLQMNSLRDEDTAVYFCARVLSPTYNDAFSGPDAFDLWGQGTRVTVSS chain 2: DIRMTQSPSTLSASVGDRVTITCRASQSISPWLAWYQQKPGKAPKLLIYKAFSLESGVPSRFSGSGSGTEFTLTISSLQPDDFATYYCQQYNNYEWTFGQGTKVEIK	> 10 µg/mL	> 10 µg/mL	> 10 µg/mL	> 10 µg/mL	> 10 µg/mL	> 10 µg/mL	0.731 µg/mL
